# No end group written: not given here.
# Amino acid sequences for entries named in this document (tags omitted). Residues count along the entry.
# UniProt P13747, 22-358 limits assumed: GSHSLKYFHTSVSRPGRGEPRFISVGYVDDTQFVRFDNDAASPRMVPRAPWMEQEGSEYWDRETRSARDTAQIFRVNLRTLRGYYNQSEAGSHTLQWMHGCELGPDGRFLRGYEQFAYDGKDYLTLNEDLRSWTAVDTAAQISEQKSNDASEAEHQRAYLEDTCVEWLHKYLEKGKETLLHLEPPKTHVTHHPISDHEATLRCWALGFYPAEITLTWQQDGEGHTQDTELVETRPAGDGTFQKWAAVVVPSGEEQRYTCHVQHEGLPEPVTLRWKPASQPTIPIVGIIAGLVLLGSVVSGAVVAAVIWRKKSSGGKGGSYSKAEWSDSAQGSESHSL
# UniProt P61769, 21-119 partner limits assumed: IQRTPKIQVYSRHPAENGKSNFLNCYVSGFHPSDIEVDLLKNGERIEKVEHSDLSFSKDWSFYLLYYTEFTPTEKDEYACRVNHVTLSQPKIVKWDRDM
# Molecular target: HLA-E*01:03 (Homo sapiens, UniProt P13747)
# Test: HLA-E*01:03 surface stabilization by 9-mer peptides on LCL721.221 cells overexpressing HLA-E*01:03
# Conditions: LCL721.221 cells overexpressing HLA-E*01:03 pulsed with 9-mer peptide; serum-free AIM V; flow cytometry; mean ± SD (n = 3); no peptide 3380 ± 10
sequence,measurement,value
PEIVIYQYM [PM9],"HLA-E MFI, LCL721.221/HLA-E*01:03 assay",over 4000
